Results of unrelated studies side by side (data: NIAID ChemDB).

Common to all: growth or infection tests; agent: Hepatitis B virus; read-out: EC50

Lines come from different laboratories, so protocols vary. ECn: concentration that inhibits the pathogen or its effect by n%. Blank or dashed fields: not listed here. Two numbers with a dash give a range or band.

{"SMILES": "C#CCNC(=O)C(=O)c1c(Cl)c(C(=O)Nc2ccc(F)c(C#N)c2)n(C)c1C", "cell line": "HepG2.2.15", "method": "PCR", "value": "0.001–0.0099 µM"}
{"SMILES": "CCOC(=O)C1=C(CN2CC(F)(F)[C@H]3[C@@H]2CCN3C[C@](C)(F)C(=O)O)NC(c2nc(C)cs2)=N[C@H]1c1cccc(F)c1C", "cell line": "HepG2.2.15", "method": "PCR", "value": "0.0395 µM"}
{"SMILES": "CC(C)NS(=O)(=O)N1CCC(NS(=O)(=O)c2cn(C)c(C(=O)Nc3ccc(F)c(F)c3)c2F)CC1", "cell line": "HepAD38 cells", "method": "PCR", "value": "<0.1 µM"}
{"SMILES": "C#CC1(NC(=O)C(=O)c2c(C)c(C(=O)Nc3ccc(F)c(C#N)c3)n(C)c2Cl)COC1", "cell line": "HepG2.2.15", "method": "PCR", "value": "<0.001 µM"}
{"SMILES": "CCOC(=O)C1=C(CN2CC(F)(F)[C@@H]3[C@H]2CON3C[C@@H](OC)C(C)(C)C(=O)O)NC(c2nccs2)=N[C@@H]1c1ccc(F)c(F)c1C", "cell line": "HepG2.2.15", "method": "PCR", "value": "0.001 µM"}
{"SMILES": "C#CCNC(=O)C(=O)c1c(F)c(C(=O)Nc2ccc(F)c(C#N)c2)n(C)c1Cl", "cell line": "HepG2.2.15", "method": "PCR", "value": "0.1–0.999 µM"}
{"SMILES": "CNC(=O)C(=O)N1CC[C@@H](NS(=O)(=O)c2c(F)c(C(=O)Nc3ccc(F)c(F)c3)n(C)c2C)C1", "cell line": "HepAD38 cells", "method": "PCR", "value": "<0.1 µM"}
{"SMILES": "NS(=O)(=O)c1cccc(-n2c(C(=O)NCc3ccccc3)c3n(c2=O)CCN(C(=O)c2ccc(Br)c(Cl)c2)C3)c1", "cell line": "HepG2.117", "method": "PCR", "value": ">5 µM"}
{"SMILES": "CCOC(=O)C1=C(CN2CC(F)(F)[C@H]3[C@@H]2CON3C[C@@H](O)C(C)(C)C(=O)O)NC(c2nc(C)cs2)=N[C@H]1c1cccc(F)c1C", "cell line": "HepG2.2.15", "method": "PCR", "value": "0.003 µM"}
{"SMILES": "C[C@H]1CS(=O)(=O)[C@@H](c2cccs2)CN1C(=O)Nc1ccc(F)c(Cl)c1", "cell line": "HepG2.117", "method": "PCR", "value": "0.1–0.5 µM"}
{"SMILES": "Cc1c(C(=O)C(=O)NC(C)(C)c2cnn(C3CC3)c2)c(C)n(C)c1C(=O)Nc1ccc(F)c(C#N)c1", "cell line": "HepG2.2.15", "method": "PCR", "value": "0.001–0.0099 µM"}
{"SMILES": "COC(=O)C1=C(CN2CC(F)(F)[C@H]3[C@@H]2CCN3C[C@@H](F)C(C)(C)C(=O)O)NC(c2nc(C)cs2)=N[C@H]1c1cccc(F)c1C", "cell line": "HepG2.2.15", "method": "PCR", "value": "0.005 µM"}
{"SMILES": "C#CC1(NC(=O)C(=O)c2c(C)c(C(=O)Nc3ccc(F)c(C#N)c3)n(C)c2C)CCCC1", "cell line": "HepG2.2.15", "method": "PCR", "value": "0.001–0.0099 µM"}
{"SMILES": "CCOC(=O)C1=C(CN2CC(F)(F)[C@@H]3[C@H]2CON3C[C@H](O)C(C)(C)C(=O)O)NC(c2nccs2)=N[C@H]1c1ccc(F)cc1Cl", "cell line": "HepG2.2.15", "method": "PCR", "value": "0.036 µM"}
{"SMILES": "C[C@H](c1cnc([C@]2(F)CN(C(=O)c3ccc(Br)c(C#N)c3)CCS2(=O)=O)s1)c1ccccc1F", "cell line": "HepG2.117", "method": "PCR", "value": "0.5–5 µM"}
{"SMILES": "CN1[C@H](C(=O)Nc2ccc(F)c(Cl)c2)C[C@H](c2ncc(-c3cn(C)cn3)s2)NS1(=O)=O", "strain": "Genotype D", "cell line": "HepG2-NTCP", "method": "ELISA", "value": "0.227 µM"}
{"SMILES": "COc1ccc(CNC(=O)c2c3n(c(=O)n2-c2ccc(-n4cccn4)cc2)CCN(C(=O)c2ccc(Br)c(Cl)c2)C3)c(F)c1", "cell line": "HepG2.117", "method": "PCR", "value": "0.1–0.5 µM"}
{"SMILES": "CCOC(=O)C1=C(CN2CC(F)(F)[C@@H]3[C@H]2CON3C[C@H](F)CCC(C)(C)C(=O)O)NC(c2nccs2)=N[C@H]1c1cccc(F)c1C", "cell line": "HepG2.2.15", "method": "PCR", "value": "0.008 µM"}
{"SMILES": "COc1ccc(-n2c(C(=O)NCc3ccc(F)cc3C)c3n(c2=O)CCN(C(=O)c2ccc(Br)c(Cl)c2)C3)cc1", "cell line": "HepG2.117", "method": "PCR", "value": "0.1–0.5 µM"}
{"SMILES": "CNS(=O)(=O)NC1CCCC(NS(=O)(=O)c2cn(C)c(C(=O)Nc3ccc(F)c(F)c3)c2F)C1", "cell line": "HepAD38 cells", "method": "PCR", "value": "<0.1 µM"}
{"SMILES": "Cn1cnc(-c2ccc([C@@H]3CN(C(=O)c4ccc(Br)c(Cl)c4)CCS3(=O)=O)s2)c1", "cell line": "HepG2.2.15", "method": "PCR", "value": "0.1–0.5 µM"}
{"SMILES": "C[C@@H](NC(=O)C1C2CN(C(=O)c3ccc(Br)c(Cl)c3)CCN2C(=O)N1c1ccc(OC2CC2)cc1)c1ccccc1", "cell line": "HepG2.117", "method": "PCR", "value": "0.1–0.5 µM"}
{"SMILES": "Cc1c(C(=O)C(=O)NC(C)(C)c2ccccn2)c(C)n(C)c1C(=O)Nc1ccc(F)c(C(F)(F)F)c1", "cell line": "HepG2.2.15", "method": "PCR", "value": "0.001–0.0099 µM"}
{"SMILES": "COc1ccc(CNC(=O)c2c3n(c(=O)n2-c2ccc(OCC(F)(F)F)cc2)CCN(C(=O)c2ccc(Br)c(Cl)c2)C3)c(-n2cccn2)c1", "cell line": "HepG2.117", "method": "PCR", "value": "<0.1 µM"}
{"SMILES": "COC(=O)C1=C(CN2CC(F)(F)[C@@H]3[C@H]2CON3C[C@H](O)C(C)(C)C(=O)O)NC(c2nccs2)=N[C@H]1c1ccc(F)c(F)c1Cl", "cell line": "HepG2.2.15", "method": "PCR", "value": "0.042 µM"}
{"SMILES": "C[C@@H](NC(=O)c1c2n(c(=O)n1-c1ccc(OC3CC3)cc1)CCN(C(=O)c1ccc(Br)c(Cl)c1)C2)c1ccc(OCC(N)=O)cc1-n1cccn1", "cell line": "HepG2.117", "method": "PCR", "value": ">0.5 µM"}
{"SMILES": "CCCn1cc(S(=O)(=O)N[C@@H]2CCN(C(=O)C(=O)NC)C2)c(F)c1C(=O)Nc1ccc(F)c(F)c1", "cell line": "HepAD38 cells", "method": "PCR", "value": "<0.1 µM"}
{"SMILES": "Cc1c(C(=O)N2CCn3c(c(C(=O)NCC4=C(F)C=CCC4)n(-c4ccc(OC5CC5)cc4)c3=O)C2)ccc(Br)c1Cl", "cell line": "HepG2.117", "method": "PCR", "value": "0.5–5 µM"}
{"SMILES": "O=C(c1ccc(Cl)c(Cl)c1)N1CCS(=O)(=O)[C@H](c2cccs2)C1", "cell line": "HepG2.2.15", "method": "PCR", "value": "0.1–0.5 µM"}
{"SMILES": "O=C(NCc1ccccc1-c1ncc[nH]1)c1c2n(c(=O)n1-c1ccc(OCC(F)(F)F)cc1)CCN(C(=O)c1ccc(Br)c(Cl)c1)C2", "cell line": "HepG2.117", "method": "PCR", "value": "<0.1 µM"}
{"SMILES": "COC(=O)C1=C(CN2CC(F)(F)[C@@H]3[C@H]2CON3C[C@H](OC)C(C)(C)C(=O)O)NC(c2ncoc2C)=N[C@H]1c1ccc(F)cc1Cl", "cell line": "HepG2.2.15", "method": "PCR", "value": "0.062 µM"}

A second listing of 5 rows from above:

SMILES | strain | cell line | method | value
CCOC(=O)C1=C(CN2CC(F)(F)[C@H]3[C@@H]2CCN3C[C@](C)(F)C(=O)O)NC(c2nc(C)cs2)=N[C@H]1c1cccc(F)c1C | - | HepG2.2.15 | PCR | 0.0395 µM
O=C(NCc1ccccc1-c1ncc[nH]1)c1c2n(c(=O)n1-c1ccc(OCC(F)(F)F)cc1)CCN(C(=O)c1ccc(Br)c(Cl)c1)C2 | - | HepG2.117 | PCR | <0.1 µM
C[C@@H](NC(=O)C1C2CN(C(=O)c3ccc(Br)c(Cl)c3)CCN2C(=O)N1c1ccc(OC2CC2)cc1)c1ccccc1 | - | HepG2.117 | PCR | 0.1–0.5 µM
COc1ccc(CNC(=O)c2c3n(c(=O)n2-c2ccc(OCC(F)(F)F)cc2)CCN(C(=O)c2ccc(Br)c(Cl)c2)C3)c(-n2cccn2)c1 | - | HepG2.117 | PCR | <0.1 µM
COC(=O)C1=C(CN2CC(F)(F)[C@@H]3[C@H]2CON3C[C@H](OC)C(C)(C)C(=O)O)NC(c2ncoc2C)=N[C@H]1c1ccc(F)cc1Cl | - | HepG2.2.15 | PCR | 0.062 µM